Measured values from several laboratories, pooled; numbers as filed in NIAID ChemDB.

Common to all: host cell toxicity; cell line: PBMC; measure: CC50

CCn: concentration that lowers growth or viability of the cells by n%. Conditions beyond the fields shown may differ between rows.

Cc1nnc2c3ccccc3c(N3CCc4ccc(N)cc4C3)nn12 ; value: 4.15 µM
Cc1nc(CCCCCCC(=O)c2ccccc2)n2nc(NCCCCCCNCc3cn([C@H]4C=C[C@@H](CO)O4)c(=O)[nH]c3=O)ccc12 ; value: 25 µM
Cc1cn([C@H]2C[C@H](N=[N+]=[N-])[C@@H](COC(=O)OC[C@H]3O[C@H]3CO)O2)c(=O)[nH]c1=O ; value: >20 µM
Cc1ccccc1Cn1c(=O)ccn(CC#N)c1=O ; value: >490 µM
Cc1nc(CCCCCCC(=O)c2ccccc2)n2nc(NCCCCCCCCCCCCN)ccc12 ; value: >10 µM
Nc1ncnc2c1ccn2[C@H]1C=C[C@@H](CO)C1 ; value: >100 µM
Cc1nnc2c3c(c(N4CCc5ccccc5C4)nn12)C1CCC3CC1 ; value: 7.78 µM
O=C1CN([C@H]2C[C@H](O)[C@@H](CO)O2)C(=O)CN1 ; method: XTT ; value: >100 µM
COc1ccc2nc(Cl)c(/C=C/C(=O)c3sccc3Cl)cc2c1 ; method: MTS ; value: 14.6 µM
O=c1[nH]c(=O)n([C@H]2C=C[C@@H](CO)O2)cc1CO ; value: 55 µM
CC(=O)c1c(C)nc(-c2ccccc2)nc1NC(=O)c1ccccc1 ; method: trypan blue ; value: >50 µM
CN(C)c1ccc(/C=N/NC(=O)CN2c3c(-c4ccccc4)n[nH]c3-c3ccccc3S2(=O)=O)cc1 ; value: >100 µM
CCOC(=O)[C@H](C)NP(=O)(OC[C@@H]1OC[C@H](n2cnc3c(=O)[nH]c(N)nc32)O1)Oc1ccccc1 ; method: MTT ; value: >100 µM
O=c1[nH]cnc2c1ncn2[C@H]1O[C@@H](CO)CC1(F)F ; value: >100 µM
O=C(NCCc1ccc2c(n1)NCCC2)NCc1ccccc1F ; value: 50 µM
Cc1cc(C)cc(N2C(=O)CCC2(C#N)c2c(Cl)cccc2Cl)c1 ; method: absorbance ; value: 59 µM
CCOC(=O)[C@H](C)NP(=O)(OC[C@@H]1OC[C@H](n2cnc3c(N)nc(N)nc32)O1)Oc1ccccc1 ; method: MTT ; value: 66.5 µM
Nc1ccn([C@@H]2O[C@@H](CO)[C@H](O)C2(F)F)c(=O)n1 ; value: >100 µM
Cc1cn([C@H]2C=C[C@@H](CO)O2)c(=O)n(CCCCCCN2CCN(CCNC(=S)Nc3ccc(Br)cn3)CC2)c1=O ; method: MTT ; value: >100 µM
c1ccc2c(c1)CCN(c1nn3c(-c4ccsc4)nnc3c3ccccc13)C2 ; value: 38.8 µM
S=C(NCCN1CCNCC1)Nc1ccc(Br)cn1 ; method: MTT ; value: >100 µM
CN(C)CCCN=C(N)c1ccc(C(N)=NCCCN(C)C)cc1 ; value: >111 µM
N#CCn1ccc(=O)n(Cc2cc(Cl)cc(Cl)c2)c1=O ; value: 214 µM
O=C(CN1c2c(-c3ccccc3)n[nH]c2-c2ccccc2S1(=O)=O)N/N=C/c1ccc(Cl)cc1 ; value: 31.6 µM
NC(N)=NC(=O)c1ccc(N2CCCCCC2)nc1 ; method: ATP / luminescence ; value: 96 µM
Nc1ccn([C@@H]2O[C@H](CO)C=C2F)c(=O)n1 ; value: 7.3 µM
COc1ccc(/C=C/c2cc(Cl)c3cc(Cl)ccc3n2)c(OC)c1 ; method: MTT ; value: 5.34 µM
Cc1cc(C)c(Nc2nc(Cl)nc(Nc3ccc(C#N)nc3)n2)c(C)c1 ; method: MTT ; value: 46 µg/mL
S=C(NCCCc1ccc2c(n1)NCCC2)Nc1ccc(Cl)c(Cl)c1 ; value: 50 µM
CCCCCCCCCCCCCCCCOCCOP(=O)(O)CO[C@H](C)Cn1cnc2c(N)ncnc21 ; method: XTT / absorbance ; value: >100 µM
Cc1nc(CCCCCCC(=O)c2ccccc2)n2nc(NCCCCCCN)ccc12 ; value: >10 µM
N#CC1=CC2Nc3ccccc3C2N(c2ccc([N+](=O)[O-])cc2)C1=O ; method: trypan blue ; value: 80 µM
Nc1ccn([C@H]2CO[C@@H](CO)S2)c(=O)n1 ; method: MTT ; value: 520 µM
COc1cc(Cn2c(=O)ccn(CC#N)c2=O)cc(OC)c1 ; value: >415 µM
CC(C)Oc1ccccc1CNC(=O)c1ccc2cnccc2n1 ; value: 18.6 µM
NNC(=O)CN1c2c(-c3ccccc3)n[nH]c2-c2ccccc2S1(=O)=O ; value: >100 µM
Cc1ccc(N2C(=O)CCC2(CN)c2ccc(OCc3ccccc3)cc2)cc1 ; method: absorbance ; value: 15.9 µM
CCCCCCCCCCCCCCCC(=O)N(CCCCCCCCCCC(=O)O)CC(O)C(O)C(O[C@@H]1O[C@H](CO)[C@H](O)[C@H](O)[C@H]1O)C(O)CO ; value: >246 µM
O=C(CN1c2c(-c3ccccc3)n[nH]c2-c2ccccc2S1(=O)=O)N/N=C/c1cccc(Cl)c1 ; value: 11.2 µM
Oc1ccc2c(c1)CN(c1nn3c(C4CC4)nnc3c3ccccc13)CC2 ; value: 1.3 µM
Nc1ccn([C@@H]2C=C(F)[C@H](CO)O2)c(=O)n1 ; value: 86.9 µM
CCCCCCCCCCCCCCCCCCOCCOP(=O)(O)CO[C@H](CO)Cn1ccc(N)nc1=O ; method: flow cytometry ; value: 7.5 µM
CCC(=O)c1ccc(NC(=O)NCCc2ccc3c(n2)NCCC3)cc1 ; value: 31 µM
NCC(NC(=O)c1ccc(-c2ccc3c(c2)OCO3)[nH]1)c1ncc(CO)s1 ; method: MTS ; value: 61.3 µM
O=C(NCCc1ccccc1)C1=Cc2ccncc2CC1 ; value: 270 µM
CCCCCCCCCCCCCCCCCCOCCOP(=O)(O)CO[C@H](CO)Cn1cnc2c(N)nc(N)nc21 ; method: flow cytometry ; value: 6 µM
C/C(=C/C(=O)c1cccnc1)Nc1ccc(O)cc1 ; method: MTS ; value: >100 µM
CC(C)(C)C(=O)OCOP(=O)(CC[C@H]1O[C@@H](n2cnc3c(N)nc(N)nc32)[C@](C)(F)[C@@H]1O)OCOC(=O)C(C)(C)C ; value: >100 µM
Cc1nc(C(CN)NC(=O)c2ccc(-c3ccc4c(c3)OCO4)[nH]2)sc1CO ; method: MTS ; value: 62.8 µM
CCCOc1ccccc1CNC(=O)c1ccc2cnccc2n1 ; value: 6 µg/mL
CCN(CC)c1ccc(/C=N/NC(=O)CN2c3c(-c4ccccc4)n[nH]c3-c3ccccc3S2(=O)=O)cc1 ; value: 52.2 µM
CC(C)[C@@H]1NC(=O)[C@H](C(C)C)N([C@H]2C[C@H](O)[C@@H](CO)O2)C1=O ; method: XTT ; value: >100 µM
Cc1cc(C)cc(Cc2c(I)c(=O)[nH]c(=O)n2COCc2ccccc2)c1 ; method: XTT ; value: 137.8 µM
Cn1c2ccccc2c(=O)c2c(O)cccc21 ; value: 12.4 µg/mL
[N-]=[N+]=N[C@@H]1C[C@@H](n2cc(F)c(N)nc2=O)O[C@H]1CO ; method: trypan blue ; value: >100 µM
NC(=O)CCNC[C@H](Cc1ccc(O)cc1)NC[C@H](Cc1ccc(O)cc1)NC[C@H](Cc1ccc(O)cc1)NC[C@H](Cc1ccc(O)cc1)NC[C@H](Cc1ccc(O)cc1)NC[C@@H](N)Cc1ccc(O)cc1 ; method: MTS ; value: >100 µM
Nc1nc(NC2CC2)c2ncn([C@H]3CO[C@@H](CO)O3)c2n1 ; method: MTT ; value: >100 µM
NCC(N)=O ; value: >500 µM
CC(=O)O[C@@H]1[C@@H](OC(C)=O)[C@H](C)O[C@@H]2Oc3c(c(=O)n(C)c(=O)n3C)S[C@@H]21 ; method: MTT ; value: 46.2 µM
Cc1cc2ccccc2c(-c2ccc3c4c(ccnc24)CCO3)c1[C@H](OC(C)(C)C)C(=O)O ; method: MTT ; value: >90 µM
CC(=O)OC[C@H]1O[C@@H]2Oc3c(c(=O)n(C)c(=O)n3C)S[C@@H]2[C@@H](OC(C)=O)[C@H]1OC(C)=O ; method: MTT ; value: 39 µM
Cc1cn([C@H]2C=C[C@@H](CO)O2)c(=O)[nH]c1=O ; value: 42 µM
CCCc1cc(=O)oc2c3c(c4c(c12)OC(C)(C)C=C4)O[C@H](C)C[C@@H]3O ; method: trypan blue ; value: 594 µM
CC(C)(C)C(=O)OCOP(=O)(CC[C@H]1O[C@@H](n2cnc3c(N)ncnc32)[C@](C)(F)[C@@H]1O)OCOC(=O)C(C)(C)C ; value: >100 µM
Nc1ccn([C@H]2C=C(F)[C@@H](CO)O2)c(=O)n1 ; value: >100 µM
O=c1[nH]c(=O)n([C@H]2O[C@@H](CO)CC2(F)F)cc1I ; value: >100 µM
Nc1ccn([C@@H]2C=C[C@H](CO)O2)c(=O)n1 ; value: 65 µM
C#CCn1ccc(=O)n(Cc2cc(C)cc(C)c2)c1=O ; value: 295 µM
COc1ccc2nc(Cl)c(/C=C/C(=O)c3sccc3C)cc2c1 ; method: MTS ; value: 47.8 µM
C[C@@H](NC(=O)c1ccc2cncc(Br)c2n1)c1ccccc1 ; value: 27.3 µg/mL
CCN(CC)C(=O)OC[C@@H]1CN(C(=O)c2ccccc2)CCN1C(=O)C(=O)c1c[nH]c2nccc(OC)c12 ; method: MTT ; value: >125 µM
NCC1(c2ccc(OCc3ccccc3)cc2)CCC(=O)N1Cc1ccccc1 ; method: absorbance ; value: 15.7 µM
O=S(=O)(NCCc1ccc2c(n1)NCCC2)c1ccc(F)cc1 ; value: 50 µM
Cc1ccc2nc(Cl)c(/C=C/C(=O)c3ccc4ccccc4c3)cc2c1 ; method: MTS ; value: >100 µM
CS(=O)(=O)Nc1ccc2c(c1)CN(c1nn3c(C4CC4)nnc3c3ccccc13)CC2 ; value: 1.78 µM
COc1ccc(/C=N/NC(=O)CN2c3c(-c4ccccc4)n[nH]c3-c3ccccc3S2(=O)=O)cc1OC ; value: 75.8 µM
COc1ccnc2[nH]cc(C(=O)C(=O)N3CCN(C(=O)c4ccccc4)C[C@H]3C)c12 ; value: >225 µM
C[C@@H]1NC(=O)[C@H](C)N([C@H]2C[C@H](O)[C@@H](CO)O2)C1=O ; method: XTT ; value: >100 µM
C[C@@H](CN[C@H](CN[C@H](CN[C@H](CNCCC(N)=O)Cc1ccc(O)cc1)Cc1ccc(O)cc1)Cc1ccc(O)cc1)NC[C@H](Cc1ccc(O)cc1)NC[C@@H](N)Cc1ccc(O)cc1 ; method: MTS ; value: >100 µM
CC(=O)O[C@@H]1[C@@H](OC(C)=O)[C@H](C)O[C@@H]2Oc3[nH]c(=O)[nH]c(=O)c3S[C@@H]21 ; method: MTT ; value: 70 µM
O=C(NCCc1ccc2c(n1)NCCC2)Nc1ccc2cc[nH]c2c1 ; value: 0.89 µM
O=c1ccn([C@@H]2O[C@@H](CO)CC2(F)F)c(=O)[nH]1 ; value: >100 µM
O=C(CN1c2c(-c3ccccc3)n[nH]c2-c2ccccc2S1(=O)=O)N/N=C/c1cccc(Br)c1 ; value: 11.7 µM
Cn1c2c(c(=O)n(C)c1=O)S[C@@H]1[C@H](O2)O[C@H](COc2ccccc2)[C@@H](OCc2ccccc2)[C@@H]1OCc1ccccc1 ; method: MTT ; value: >100 µM
CC(=O)c1ccc(NC(=O)NCCc2ccc3c(n2)NCCC3)cc1 ; value: 18 µM
CCOCc1cn([C@H]2C=C[C@@H](CO)O2)c(=O)[nH]c1=O ; value: 54 µM